Test results taken from patent US20240043504A1 (published 2024).

B1: mAb10932 (antibody, V domains shown)
VH: EVQLVESGGGLVQSGGSLRLSCAASGLTVSSNYMSWVRQAPGKGLEWVSVIYSGGSTFYSDSVKGRFTISRHNSKNTLYLQMNSLRAEDTAVYYCARARGDAFDIWGQGTMVTVSS
VL: DIQMTQSPSSLSASVGDRVTITCQASQGISNYLNWYQQKPGKAPKLLISDASNLETGVPSRFSGSGSGTDFTFTISSLQPEDIATYYCQQYDNLRFFTFGPGTKVDIKR
B2: mAb10930 (antibody, V domains shown)
VH: EVQLVESGGGLVQPGRSLRLSCAASGFTFDDYAMYWVRQAPGKGLEWVSGISWNSGSIGYADSVKGRFTISRDNAKNSLYLQMNSLRAADTALYYCAKDKDWNSRGYYYYGMDVWGQGTTVTVSS
VL: not shown
B3: mAb10935 (antibody, V domains shown)
VH: EVQLVESGGGLVQPGGSLRLSCAASGFTVSSNYMSWVRQAPGKGLEWVSLIYSGGSTYYADSVKGRFTISRHNSKNTLYLQMNSLRSEDTAVYYCARVPLGDYYYGMDVWGQGTTVTVSS
VL: DIQMTQSPSSLSASVGDRVTITCQASQDINKYLNWYQQKPGKAPKLLIYDASNLETGVPSRFSGSGSGTDFTFTISSLQPEDIATYYCQQSDNLPLTFGGGTKVEIKR
B4: mAb10956 (antibody, V domains shown)
VH: EVQLVESGGGLVQPGGSLRLSCAASGLTVSSNYMSWVRQAPGKGLEWVSVIYSGGSTFYADSVKGRFTISRDNSKNTLYLQMNSLRAEDTAVYYCARDLIKYGMDVWGQGTTVTVSS
VL: DIQMTQSPSSLSASVGDRVTITCQASQDISNYLNWYQQKPGKAPKLLIYDASNLETGVPSRFSGSGSGTDFTFTISSLQPEDIATYYCQQYDNLPPHFGPGTKVDIKR
B5: mAb10966 (antibody, V domains shown)
VH: EVQLVESGGGLVQPGGSLRLSCAASGLTVSSNYMSWVRQAPGKGLEWVSVIYSGGSTFYADSVKGRFTISRDNSKNTLYLQMNSLRPEDTAVYYCAREGRIAATGYGMDVWGQGTTVTVSS
VL: DIQMTQSPSSLSASVGDRVTITCQASQDISNYLNWYQQKPGKAPKLLIYDASNLGTGVPSRFSGSRSGTDFTFTISSLQPEDIATYYCHQYDNLPQTFGPGTKVDIKR
B6: mAb10939 (antibody, V domains shown)
VH: EVQLVESGGGLVQPGGSLRLSCAASGLTVSSNYMNWVRQVPGKGLEWVSVIYSGGSKFYVDSVKGRFTISRHNSKNTLYLQMNSLRPEDTAVYYCTRDAQYYGMDVWGQGTTVTVSS
VL: DIQMTQSPSSLSASVGDRVTITCRASQSISTYLHWYQQKPGEAPKLLIYAASSLQSGVPSRFSGSGSGTDFTLTISSLQPEDFATYYCQQSYSTPPEIFGQGTKLEIKR
B7: mAb10922 (antibody, V domains shown)
VH: EVQLVESGGGLVQPGGSLRLSCAASGFTFSIYEMNWVRQAPGKGLEWVSYITSSGTTIYYADSVKGRFTISRDNAKNSLYLQMNSLRAEDTAVYYCASSSSSGYYFDYWGQGTLVTVSS
VL: not shown
B8: mAb11006 (antibody, V domains shown)
VH: EVQLVESGGGLVQPGGSLRLSCAASGFIVSRNYMSWVRQAPGKGLEWVSVIYSGGSTFYADSVKGRFTISRHNSKNTLYLQMNSLKAEDTAVYYCARELRGYFDYWGQGTLVTVSS
VL: DIQLTQSPSFLSASVGDRVTITCWASQGISSYLAWYQQKPGKAPKLLIYAASTLQSGVPSRFSGSGSGTEFTLTISSLQPEDFATYYCQLLNSYPYTFGQGTKLEIKR
B9: mAb11008 (antibody, V domains shown)
VH: EVQLVESGGGLVQPGGSLRLSCAASGFTVSSNYMTWVRQAPGKGLEWVSVIYSGGSTFYADSVKGRFTISRHNSENTLYLQMNSLRAEDTAVYYCARDLAAAGTDYWGQGALVTVSS
VL: DIQLTQSPSFLSASVGDRVTITCWASQGISSYLAWYQQKPGKAPKLLIYAASTLQSGVPSRFSGSGSGTEFTLTISSLQPDDFATYYCQHLNSYLYTFGQGTKLEIKR
B10: mAb10985 (antibody, V domains shown)
VH: EVQLVESGGGLVQPGRSLRLSCAASGFTFDDYAMHWVRQAPGKGLEWVSGISWNRGSIGYADSVKGRFTISRDNAKNSLYLQMSSLRAEDTALYYCAKDGERWDSVVVPSARNGMDVWGQGTTVTVSS
VL: QSVLTQPPSVSGAPGQRVTISCTGSSSNIGAGYDVHWYQQLPGTAPKLLIYGNSNRPSGVPDRFSGSKSGTSASLAITGLQAEDEADYYCQSYDSSLSGSYVFGTGTKVTVLG
B11: mAb11004 (antibody, V domains shown)
VH: QVQLVESGGGVVQPGRSLRLSCVASGFTFSIYGMDWVRQAPGKGLEWVAVISYDGSNKYYADSVKGRFTISRDNSKNTLYLQMNSLRPEDTAVYYCAKDREAAADAFDIWGQGTMVTVSS
VL: DIQMTQSPSSVSASVGDRVTITCRASQGISSWLAWYQQKPGKAPKLLIYAASSLHSGVPSRFSGSGSGTDFTLTISSLQPEDFATYYCQQANSFRLTFGGGTKVEIKR
B12: mAb11006 (antibody, V domains shown)
VH: EVQLVESGGGLVQPGGSLRLSCAASGFIVSRNYMSWVRQAPGKGLEWVSVIYSGGSTFYADSVKGRFTISRHNSKNTLYLQMNSLKAEDTAVYYCARELRGYFDYWGQGTLVTVSS
VL: DIQLTQSPSFLSASVGDRVTITCWASQGISSYLAWYQQKPGKAPKLLIYAASTLQSGVPSRFSGSGSGTEFTLTISSLQPEDFATYYCQLLNSYPYTFGQGTKLEIKR
B13: mAb11008 (antibody, V domains shown)
VH: EVQLVESGGGLVQPGGSLRLSCAASGFTVSSNYMTWVRQAPGKGLEWVSVIYSGGSTFYADSVKGRFTISRHNSENTLYLQMNSLRAEDTAVYYCARDLAAAGTDYWGQGALVTVSS
VL: DIQLTQSPSFLSASVGDRVTITCWASQGISSYLAWYQQKPGKAPKLLIYAASTLQSGVPSRFSGSGSGTEFTLTISSLQPDDFATYYCQHLNSYLYTFGQGTKLEIKR
B14: mAb10985 (antibody, V domains shown)
VH: EVQLVESGGGLVQPGRSLRLSCAASGFTFDDYAMHWVRQAPGKGLEWVSGISWNRGSIGYADSVKGRFTISRDNAKNSLYLQMSSLRAEDTALYYCAKDGERWDSVVVPSARNGMDVWGQGTTVTVSS
VL: QSVLTQPPSVSGAPGQRVTISCTGSSSNIGAGYDVHWYQQLPGTAPKLLIYGNSNRPSGVPDRFSGSKSGTSASLAITGLQAEDEADYYCQSYDSSLSGSYVFGTGTKVTVLG
B15: mAb10930 (antibody, V domains shown)
VH: EVQLVESGGGLVQPGRSLRLSCAASGFTFDDYAMYWVRQAPGKGLEWVSGISWNSGSIGYADSVKGRFTISRDNAKNSLYLQMNSLRAADTALYYCAKDKDWNSRGYYYYGMDVWGQGTTVTVSS
VL: not shown
B16: mAb10938 (antibody, V domains shown)
VH: EVQLVESGGGLVQPGGSLRLSCAVSGFTVSSNYMSWVRQAPGKGLEWVSLIYSGGSTFYADSVKGRFTISRHNSKNTLYLQMNSLRAEDTAVYYCAREGGYSYDYNYWGQGTLVTVSS
VL: DIQMTQSPSSLSASVGDRVTITCQASQDIRNYLNWYQQKPGKAPKLLIYDASNLETGVPSRFSGIGSGTDFTFTISSLQPEDIATYYCQQYDNLPITFGQGTRLEIKR
B17: mAb10935 (antibody, V domains shown)
VH: EVQLVESGGGLVQPGGSLRLSCAASGFTVSSNYMSWVRQAPGKGLEWVSLIYSGGSTYYADSVKGRFTISRHNSKNTLYLQMNSLRSEDTAVYYCARVPLGDYYYGMDVWGQGTTVTVSS
VL: DIQMTQSPSSLSASVGDRVTITCQASQDINKYLNWYQQKPGKAPKLLIYDASNLETGVPSRFSGSGSGTDFTFTISSLQPEDIATYYCQQSDNLPLTFGGGTKVEIKR
B18: mAb10966 (antibody, V domains shown)
VH: EVQLVESGGGLVQPGGSLRLSCAASGLTVSSNYMSWVRQAPGKGLEWVSVIYSGGSTFYADSVKGRFTISRDNSKNTLYLQMNSLRPEDTAVYYCAREGRIAATGYGMDVWGQGTTVTVSS
VL: DIQMTQSPSSLSASVGDRVTITCQASQDISNYLNWYQQKPGKAPKLLIYDASNLGTGVPSRFSGSRSGTDFTFTISSLQPEDIATYYCHQYDNLPQTFGPGTKVDIKR
B19: mAb10939 (antibody, V domains shown)
VH: EVQLVESGGGLVQPGGSLRLSCAASGLTVSSNYMNWVRQVPGKGLEWVSVIYSGGSKFYVDSVKGRFTISRHNSKNTLYLQMNSLRPEDTAVYYCTRDAQYYGMDVWGQGTTVTVSS
VL: DIQMTQSPSSLSASVGDRVTITCRASQSISTYLHWYQQKPGEAPKLLIYAASSLQSGVPSRFSGSGSGTDFTLTISSLQPEDFATYYCQQSYSTPPEIFGQGTKLEIKR
B20: mAb11004 (antibody, V domains shown)
VH: QVQLVESGGGVVQPGRSLRLSCVASGFTFSIYGMDWVRQAPGKGLEWVAVISYDGSNKYYADSVKGRFTISRDNSKNTLYLQMNSLRPEDTAVYYCAKDREAAADAFDIWGQGTMVTVSS
VL: DIQMTQSPSSVSASVGDRVTITCRASQGISSWLAWYQQKPGKAPKLLIYAASSLHSGVPSRFSGSGSGTDFTLTISSLQPEDFATYYCQQANSFRLTFGGGTKVEIKR

What follows are binders tested against SARS-CoV-2 spike protein (S-wt, Wuhan-Hu-1, NCBI Accession Number MN908947.3) on VSV pseudoparticles (SARS-CoV-2, UniProt P0DTC2 14-1273) (assay: cell-based or functional assay).

Going from B1 to B2, the “IC50 (M), neutralization” value rises from 3.58e-10 M to 1.07e-09 M (3-fold).

First: B3
Second: B4
The “IC50 (M), neutralization” value of the first is 1.7-fold higher: 2.21e-10 M for the first, 1.28e-10 M for the second.

Compared with B5, B6 is 2.4-fold higher in “IC50 (M), neutralization” value: 1e-10 M for the first, 2.36e-10 M for the second.

With B7 the “IC50 (M), neutralization” value was 1.21e-10 M.

These binders were tested against SARS-COV-2 RBD extracellular domain expressed with a C-terminal myc-myc-hexahistidine tag (SARS-CoV-2) (assay: SPR Biacore, mAb captured via anti-hFc, 37 C).

Going from B8 to B9, the “90 nM Ag Bound (RU)” value falls from 92 RU to 38 RU.

Compared with B10, B11 is lower in “90 nM Ag Bound (RU)” value: 134 RU for the first, 79 RU for the second.

Compared with B8, B9 is 2.2-fold lower in Kd: 23.5 nM for the first, 10.6 nM for the second.

Compared with B10, B11 is 1.9-fold lower in Kd: 1.65 nM for the first, 0.848 nM for the second.

Going from B8 to B9, the “t½” value rises from 0.8 min to 7.6 min (9.5-fold).

Going from B10 to B11, the “t½” value rises from 2.7 min to 7.8 min (2.9-fold).

These binders were tested against SARS-COV-2 RBD extracellular domain expressed with a C-terminal mouse IgG2a (SARS-COV-2 RBD-mFc) (SARS-CoV-2) (assay: SPR, captured mAb, RBD-mFc in solution, 37 C).

Compared with B12, B13 is lower in “30 nM Ag Bound (RU)” value: 87 RU for the first, 82 RU for the second.

Compared with B14, B15 is lower in “30 nM Ag Bound (RU)” value: 87 RU for the first, 72 RU for the second.

Going from B16 to B17, the “30 nM Ag Bound (RU)” value rises from 76 RU to 101 RU.

B18 and B19 are the same in “30 nM Ag Bound (RU)” value: 92 RU for the first, 92 RU for the second.

In the case of B20, the “30 nM Ag Bound (RU)” value is reported as 83 RU.

What follows are binders tested against SARS-COV-2 RBD extracellular domain expressed with a C-terminal mouse IgG2a (SARS-CoV-2) (assay: SPR Biacore, mAb captured via anti-hFc, 25 C).

Going from B8 to B9, the “30 nM Ag Bound (RU)” value falls from 73 RU to 69 RU.

First: B10
Second: B11
The “30 nM Ag Bound (RU)” value of the first is higher: 77 RU for the first, 66 RU for the second.
